One test has as its target H3 (A/Hong Kong/1/1968) (Influenza A virus, UniProt Q91MA7). To be noted: read-out: affinity constant via yeast surface display.
The target of test [1] is HA of H3N2 A/Hong Kong/1/1968 (Influenza A virus, UniProt Q91MA7). To be noted: read-out: Kd (binding constant).
In test [2] the target is H1N1 A/New Caledonia/20/1999 (Influenza A virus, UniProt Q6WG00). Particulars: read-out: Kd (binding constant).

For the substance “GIVNVPN(P/C)NTTKYQQLARSAIAVYNYHQNAHLEFVENLN(V/C)KEQIAGKTMYYITLAATDDAGKKKIYKAKVGVVESAGWEGVEEFKLV [52solo2]”, the Kd with H3 (A/Hong Kong/1/1968) came out at 1 nM.

For the substance “GIVNVPNCNTTKYQQLARTAVAIYNYHEQAHLTFVENLNCKEQLGEGDYYYITLAATDDAGKKAIYEAKIGVVESAGWTGVEEFKLV [Hsc1]”, the Kd turned out to be 31.2 nM in test [1] and 1120 nM in test [2].
